Reference: article PMC7382501 (Nature Communications, 2020)

B1: FasR_(L98A) point mutant (natural protein)
chain: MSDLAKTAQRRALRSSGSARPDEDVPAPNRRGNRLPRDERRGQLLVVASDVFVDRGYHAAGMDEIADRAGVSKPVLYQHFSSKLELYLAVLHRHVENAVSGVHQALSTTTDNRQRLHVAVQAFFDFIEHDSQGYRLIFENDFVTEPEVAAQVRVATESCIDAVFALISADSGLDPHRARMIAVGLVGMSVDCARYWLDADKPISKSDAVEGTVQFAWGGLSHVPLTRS
B2: FasR_(L106F) point mutant (natural protein)
chain: B1 chain with A98L, L106F
B3: FasR_(F123A) point mutant (natural protein)
chain: B1 chain with A98L, F123A

Target: the molecule itself
Assay: SEC

Protein	stoichiometry N
B1	2
B2	2
B3	2

Residue numbers refer to the chain shown, from its start. Names and notes keep the numbering of the source.
